Source: patent US5783178A, “Polymer linked biological agents” (Supratek Pharma. Inc., priority 1994, dated 1998)

Tested on: HSV-1
Experiment: Effect on virus production in Vero cells
Type: cell-based, strain L2

Substance: 5'-CGTTCCTCCTGU
- Infectious Titer of HSV-1 (oligonucleotide 1 μM, 22 hours past infection): 5 × 10^6 PFU/ml
- Infectious Titer of HSV-1 (oligonucleotide 1 μM, 39 hours past infection): 1 × 10^7 PFU/ml
- Infectious Titer of HSV-1 (oligonucleotide 2 μM, 22 hours past infection): 5 × 10^6 PFU/ml
- Infectious Titer of HSV-1 (oligonucleotide 2 μM, 39 hours past infection): 1 × 10^7 PFU/ml
